Measured data: PubChem BioAssay AID1259414 (Drosophila RNAi Screening Center, 2018)

Purpose: 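Fly genes that alter Wolbachia amount inside host cells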 (primary screen)
System: Drosophila JW18 cells infected with Wolbachia
Reagent: long dsRNA against Drosophila genes, 0.25 µg dsRNA per well of a 384-well plate
Time to read-out: 5 days
Conditions: cells persistently infected with Wolbachia before knock-down; no added drug
Detection: 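Imaged fluorescence in situ signal for Wolbachia 23S rRNA per DAPI-counted host cell, given as a robust z-score within each plate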
Scale: Wolbachia per cell robust z: higher = more Wolbachia per host cell than the plate typical
Active means: 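Hit when robust z is 1.5 or more, or -1.5 or less, in at least two of three replicates; excludes dsRNAs with several or no targets, genes not expressed in JW18 and well A1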
The screen tested about 24,000 reagents; below is an unselected part of those that have a named target and a result. In the full data, about 1,210 (5%) got an active call. 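Inactive calls also include excluded dsRNAs with several or no targets, genes unexpressed in JW18, and well A1, regardless of score.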 Reagent sequences are not shown.

Exo84 [DRSC15965] — Wolbachia per cell robust z, rep 1 = 2.02; Wolbachia per cell robust z, rep 2 = -0.348; Wolbachia per cell robust z, rep 3 = 2; call = active
CG17959 [DRSC18142] — Wolbachia per cell robust z, rep 1 = -3.37; Wolbachia per cell robust z, rep 2 = -0.369; Wolbachia per cell robust z, rep 3 = 0.0611; call = inactive
CG17959 [DRSC28767] — Wolbachia per cell robust z, rep 1 = 0.656; Wolbachia per cell robust z, rep 2 = 0.000813; Wolbachia per cell robust z, rep 3 = 0.286; call = inactive
S-Lap5 [DRSC06732] — Wolbachia per cell robust z, rep 1 = -2.46; Wolbachia per cell robust z, rep 2 = -0.306; Wolbachia per cell robust z, rep 3 = 0.89; call = inactive
S-Lap5 [DRSC24405] — Wolbachia per cell robust z, rep 1 = -0.698; Wolbachia per cell robust z, rep 2 = 0.389; Wolbachia per cell robust z, rep 3 = -0.00392; call = inactive
5-HT7 [DRSC12635] — Wolbachia per cell robust z, rep 1 = -3.88; Wolbachia per cell robust z, rep 2 = -0.365; Wolbachia per cell robust z, rep 3 = 0.232; call = inactive
5-HT7 [DRSC24891] — Wolbachia per cell robust z, rep 1 = 0.0529; Wolbachia per cell robust z, rep 2 = 0.242; Wolbachia per cell robust z, rep 3 = 0.0788; call = inactive
CG11777 [DRSC06081] — Wolbachia per cell robust z, rep 1 = -1.19; Wolbachia per cell robust z, rep 2 = -0.227; Wolbachia per cell robust z, rep 3 = -0.433; call = inactive
CG11777 [DRSC26750] — Wolbachia per cell robust z, rep 1 = 0.0224; Wolbachia per cell robust z, rep 2 = -2.07; Wolbachia per cell robust z, rep 3 = -0.0783; call = inactive
MED25 [DRSC22981] — Wolbachia per cell robust z, rep 1 = -2.2; Wolbachia per cell robust z, rep 2 = -0.297; Wolbachia per cell robust z, rep 3 = -1.18; call = inactive
MED25 [DRSC25776] — Wolbachia per cell robust z, rep 1 = -0.524; Wolbachia per cell robust z, rep 2 = -1.13; Wolbachia per cell robust z, rep 3 = -0.232; call = inactive
simj [DRSC10942] — Wolbachia per cell robust z, rep 1 = -7.26; Wolbachia per cell robust z, rep 2 = -0.315; Wolbachia per cell robust z, rep 3 = -0.714; call = inactive
simj [DRSC25345] — Wolbachia per cell robust z, rep 1 = 1.43; Wolbachia per cell robust z, rep 2 = -0.671; Wolbachia per cell robust z, rep 3 = 0.617; call = inactive
simj [DRSC38963] — Wolbachia per cell robust z, rep 1 = 0.486; Wolbachia per cell robust z, rep 2 = 0.923; Wolbachia per cell robust z, rep 3 = 1.21; call = inactive

Reprinted from the listing, 2 entries:
5-HT7 [DRSC12635] — Wolbachia per cell robust z, rep 1 = -3.88; Wolbachia per cell robust z, rep 2 = -0.365; Wolbachia per cell robust z, rep 3 = 0.232; call = inactive
5-HT7 [DRSC24891] — Wolbachia per cell robust z, rep 1 = 0.0529; Wolbachia per cell robust z, rep 2 = 0.242; Wolbachia per cell robust z, rep 3 = 0.0788; call = inactive
